Sequences of proteins named here, by UniProt entry; tags and fusion partners are left off.
UniProt Q96P20, whole entry: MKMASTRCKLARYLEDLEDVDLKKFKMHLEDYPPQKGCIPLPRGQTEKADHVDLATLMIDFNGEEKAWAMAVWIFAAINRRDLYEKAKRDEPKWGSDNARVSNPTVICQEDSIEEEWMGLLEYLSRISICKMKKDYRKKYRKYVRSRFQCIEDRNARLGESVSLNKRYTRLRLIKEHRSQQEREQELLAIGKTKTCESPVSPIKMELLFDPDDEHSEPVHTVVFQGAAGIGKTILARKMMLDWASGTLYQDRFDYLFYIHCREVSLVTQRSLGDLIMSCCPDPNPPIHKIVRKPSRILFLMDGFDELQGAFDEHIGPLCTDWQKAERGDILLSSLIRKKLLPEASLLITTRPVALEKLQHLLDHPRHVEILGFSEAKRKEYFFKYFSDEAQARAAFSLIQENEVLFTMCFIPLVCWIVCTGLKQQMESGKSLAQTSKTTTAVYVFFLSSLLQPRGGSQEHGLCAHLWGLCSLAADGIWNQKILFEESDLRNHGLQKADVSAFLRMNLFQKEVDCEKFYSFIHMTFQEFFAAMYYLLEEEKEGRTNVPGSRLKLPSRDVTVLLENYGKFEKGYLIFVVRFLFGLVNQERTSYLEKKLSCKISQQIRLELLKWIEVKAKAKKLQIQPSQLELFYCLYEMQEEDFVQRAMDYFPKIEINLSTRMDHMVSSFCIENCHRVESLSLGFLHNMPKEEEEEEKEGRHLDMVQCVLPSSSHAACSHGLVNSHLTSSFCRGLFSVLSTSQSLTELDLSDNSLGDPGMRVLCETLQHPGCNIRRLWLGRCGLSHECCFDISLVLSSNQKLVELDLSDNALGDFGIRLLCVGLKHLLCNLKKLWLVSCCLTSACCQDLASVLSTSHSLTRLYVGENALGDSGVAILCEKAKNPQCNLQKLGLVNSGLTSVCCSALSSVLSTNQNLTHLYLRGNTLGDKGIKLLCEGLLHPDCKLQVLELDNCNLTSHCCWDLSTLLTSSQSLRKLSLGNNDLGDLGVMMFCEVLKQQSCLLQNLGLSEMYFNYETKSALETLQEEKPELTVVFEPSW

In patent publication US20240287079A1, “6-AMINOPYRAZOLOPYRIMIDINE COMPOUND AND PHARMACEUTICAL USE THEREOF” (Japan Tobacco Inc., priority 2021, published 2024):

The molecules below were run against NLRP3 inflammasome (Homo sapiens (Human), UniProt Q96P20) (assay: Evaluation of NLRP3 inflammasome inhibitory activity (inhibition of IL-1β production in LPS/Nigericin-stimulated THP1-Null cells)). Conditions: IL-1β production in THP1-Null cells, PMA, LPS 1 μg/mL, Nigericin 7.5 μmol/L, AlphaLISA.
Format: cell-based
Protocol: The NLRP3 inflammasome inhibitory activity of test compounds were evaluated on the basis of the inhibitory activity of the IL-1β production in THP1-Null cells (Product Number: thp-null, InvivoGen). […] The supernatant of the culture was removed, and thereto was added media for assay (25 μL/well) containing 1 μg/mL Lipopolysaccharides (Product Number: L2654, Sigma-Aldrich (registered trademark)). […] The supernatant of the culture was removed. […] A solution containing a test compound (20 μL/well) was added to test compound-setting wells. […] The supernatant of the culture was cryonically stored (set at −20° C.) until measurement of IL-1β.
The amount of IL-1β in the culture supernatant was quantitated with AlphaLISA(registered trademark) Human IL-1β Detection Kit (Product Number: AL220C, Perkin Elmer). Fluorescence intensity was measured with a microplate reader EnSpier (Model number: 2300-00J, Perkin Elmer) or EnSight(Model number: HH34000000, Perkin Elmer) according to procedure manuals attached thereto. Inhibition rates of the test compound-setting wells were calculated on the basis of 100% for the blank-setting wells and 0% for the control-setting wells.
In the case of `Cc1cc(Br)cc(C)c1-n1cc2c(=O)[nH]c(N3CCOCC3)nc2n1` [Example 335], the IC50 is reported as 9.8 nM. With `Cc1cc(Br)cc(C)c1-n1cc2c(=O)[nH]c(N3CCOCC3)nc2n1` [Example 94, 2-(4-bromo-2,6-dimethylphenyl)-6-morpholino-2,5-dihydro-4H-pyrazolo[3,4-d]pyrimidin-4-one] the IC50 was 4.3 nM. For `Cc1cc(Br)cc(C)c1-n1cc2c(=O)[nH]c(N3CCOCC3)nc2n1` [Example 334], the IC50 was 8.2 nM.
